# Screening data, single-dose tests

Data taken from ChEMBL document CHEMBL3988442, “University of Dundee, Small-Polar-MMV Screening Library” (2021).

Mtb glucose medium: 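Phenotypic screen: M. tuberculosis growth, glucose 7H9 medium, 3 days; the read-out is not stated. Compounds at 50 µM. Higher reads as more growth inhibition (inferred: compounds with an IC50 in retests scored well above the rest). About 69,000 compounds were tested under these conditions; 1.1% (about 760) showed 50% or more at least once.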
Mtb cholesterol medium: 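Whole-cell growth test on Mycobacterium tuberculosis, read after 4 days in a medium based on cholesterol and the lipid DPPC; the read-out is not stated. Tested at 50 µM. The record gives no direction; compounds that gave an IC50 in retests scored well above the rest, so higher reads as more growth inhibition. Of about 69,000 compounds tested this way, about 370 (0.54%) reached 50% or more in at least one test.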

Values are the deposited “Percent Effect”, in %. How 0% and 100% were set is not recorded. Most values in the screen are low, and negative values occur. This is part of a subset picked to be rich in strong results. Two or more numbers in one place are separate tests of the same structure; such repeats can differ widely. A dash means the value is not listed here; it may have been measured.

| # | Compound | Mtb glucose medium | Mtb cholesterol medium |
|---|---|---|---|
| 1 | `Cc1cccc(C2CCCN2S(=O)(=O)N(C)C)n1` (configuration not stated) | 37.8 | -9.674 |
| 2 | `COc1cccc(-c2cc(C(=O)NCCCn3nc(C)cc3C)[nH]n2)c1` | 52.33 | - |
| 3 | `Cc1nc(CCCNC(=O)c2cc(F)ccc2O)n[nH]1` | 20.36 | 6.596 |
| 4 | `CCOCC(=O)NCCc1ccc(I)s1` | 10.21 | - |
| 5 | `O=C(O)C(F)(F)F.O=C1N(Cc2ccncc2)CCC12CCCN(c1ncc(F)cn1)C2` (configuration not stated) | - | 23.86 |
| 6 | `OC(COCc1ccccc1)CSc1nnc2ccccn12` (configuration not stated) | -1.335 | -4.419 |
| 7 | `N#Cc1c[nH]nc1NCc1ccc2c(c1)OCO2` | 3.266 and -0.7974 | 11.47 |
| 8 | `Cl.NC(CC1CCCCC1)c1ccccc1` (configuration not stated) | -10.08 | -6.834 |
| 9 | `Cc1nc(CCN2CCC(Oc3ccccc3F)CC2)cs1` | 5.116 | - |
| 10 | `CC(C)C(NC(=O)c1nc(N2CCOCC2)ncc1Cl)c1cccs1` (configuration not stated) | -14.93 | - |
| 11 | `CCN1CCN(S(=O)(=O)c2c[nH]c(C(C)C)n2)c2ccccc21` | 32.42 and 65.91 | - |
| 12 | `COC(=O)NCCC(=O)NC(c1ccc(Cl)cc1)C(F)(F)F` (configuration not stated) | 20.35 and -1.261 | - |
| 13 | `O=S(=O)(CCO)Cc1ccc(OCC(F)(F)F)cc1` | 15.59 | 7.354 |
| 14 | `CCN(C)Cc1nc(-c2ccccc2NS(C)(=O)=O)oc1C` | - | 71.8 |
| 15 | `O=C(O)C(F)(F)F.O=C(O)C(F)(F)F.O=C(c1c[nH]cn1)N1CCC(F)(F)C2(CCN(c3ccccn3)C2)C1` (configuration not stated) | -0.7081 and -2.358 | - |
| 16 | `CN(C)c1cc(CNC(=O)C2COc3ccccc3O2)ccn1` (configuration not stated) | -10.3 | - |
| 17 | `Cl.Clc1ccccc1CN1CCc2nc(C3CCCNC3)ncc2C1` (configuration not stated) | 52.52 | - |
| 18 | `COCCC(=O)N1CCC(Nc2ncc(Cl)cn2)CC1` | 13.09 | 9.644 |
| 19 | `Cc1cc2[nH]c(O)nc2cc1NCc1ccccc1` | 32.63 and 13.11 | - |
| 20 | `Cc1nc(C2CCCN(C(=O)c3ccc(S(C)(=O)=O)cc3)C2)no1` (configuration not stated) | 93.51 | - |
| 21 | `Cc1noc(COCC(=O)Nc2cc(C)c(Br)cn2)n1` | 51.33 | - |
| 22 | `CNC(=O)C1CN(C(=O)c2cccs2)CCN(S(C)(=O)=O)C1` (configuration not stated) | - | 1.229 and 115.2 |
| 23 | `OCC1CCCN1c1cc(N2CCN(c3ccccn3)CC2)ncn1` (configuration not stated) | -5.123 | - |
| 24 | `CCc1ccccc1CNC(=O)CNCC(F)(F)F` | 52.62 | - |
| 25 | `Cc1noc(CCCC(=O)NC(C)c2cccnc2)n1` (configuration not stated) | -23.35 | - |
| 26 | `CCCC(=O)NS(=O)(=O)c1ccc(C#N)c(C(F)(F)F)c1` | -5.236 | - |
| 27 | `CSC1(CNC(=O)CCc2ccc(Cl)s2)CCOCC1` | 50.1 | 37.63 |
| 28 | `O=C(c1csc2nc(-c3ccc(Cl)cc3)cn12)N1CCCC(CO)C1` (configuration not stated) | 26.96 | 2.085 |
| 29 | `COCCN1CCC(c2nc3ccccc3[nH]2)CC1` | -1.144 | -7.608 |
| 30 | `CN(Cc1nc(Cc2cccc(C(F)(F)F)c2)no1)C(C1CC1)C1CC1` | 48.28 and 22.12 | - |
| 31 | `CCC(CO)NCc1ccc(-c2ccc(F)cc2)o1.Cl` (configuration not stated) | 6.878 and 12 | 10.35 |
| 32 | `Cc1ccc(CN2CC(C(=O)NCC3CC3)C3(CCOCC3)C2)s1.O=C(O)C(F)(F)F` (configuration not stated) | 16.01 and -2.83 | - |
| 33 | `COc1cc(COCC2CCN(Cc3ccccn3)CC2)cc(OC)c1.O=C(O)C(=O)O` | - | 0.8464 |
| 34 | `Cc1noc(COCC(=O)N2CCCCC2c2nccs2)n1` (configuration not stated) | - | 66.36 |
| 35 | `CCOCCC(=O)NCC(C)c1ccsc1` (configuration not stated) | 4.5 and 9.216 | 8.359 |
| 36 | `O=C(c1cccc2cn[nH]c12)N1CCCC1c1noc(C2CC2)n1` (configuration not stated) | 8.359 | - |
| 37 | `O=C(O)[C@@H]1CN(Cc2ccc(-c3cc[nH]n3)s2)C[C@H]1C1CC1` | 30.78 and 55.92 | - |
| 38 | `CN(CCCc1cnn(C)c1)C(=O)Nc1cccc2[nH]nnc12` | -9.774 | -17.44 |
| 39 | `N#Cc1ccsc1NC(=O)CCN1CCn2c(nnc2C2CC2)C1` | -1.674 | - |
| 40 | `Cc1cc(C)nc(N2CCCC(c3cccc(-n4ccnc4)n3)C2)n1` (configuration not stated) | 54.58 | 55.39 |
| 41 | `Cc1sc(CN)nc1-c1ccc(Cl)cc1Cl` | 17.12 | 10.47 |
| 42 | `COc1cc(Cl)c(CN2CCC(C(N)=O)C2)cc1Cl` (configuration not stated) | -1.677 and 5.272 | - |
| 43 | `O=C(c1cccs1)N1CCC2(CC1)CN(c1cncnc1)C(=O)CO2` | - | 4.023 and -13.22 |
| 44 | `CCc1nc(C)c(C(=O)NCCN2CCCC2)s1` | 0.9306 | - |
| 45 | `CCC1c2ccsc2CCN1C(=O)NCc1ccccn1` (configuration not stated) | 19.5 | - |
| 46 | `Cc1nc(CN2CCCC(CCc3cccc(C(F)(F)F)c3)C2)co1` (configuration not stated) | 50.41 | 50.62 |
| 47 | `CCc1ccc(CN(CCCn2ccnc2)Cc2ccc(C)s2)o1.O=C(O)CC(O)(CC(=O)O)C(=O)O` | 74.03 | 85.38 |
| 48 | `O=C(O)C(F)(F)F.[H][C@@]12CN(CC3CC3)C[C@]1([H])[C@@H](OC)CCN2C(=O)Cc1ccsc1` | - | -2.602 |
| 49 | `CC(C)COC(C)C(=O)NCc1ccc(OC(C)C)nc1` (configuration not stated) | 15.47 | 9.329 |
| 50 | `CN(C)c1ccc(C(=O)N2CCCC2c2ccc(Cl)cc2)nn1` (configuration not stated) | 101.4 and -6.403 | - |
| 51 | `Cc1ccc(C(=O)NCCCN(C)S(C)(=O)=O)cc1-n1cccc1` | 67.12 | - |
| 52 | `CCOc1c(F)cccc1C(=O)N(C)CCn1cccn1` | 3.592 and 10.6 | - |
| 53 | `c1cc(-c2ccc3c(c2)CCC32CCNCC2)ccn1` | 21.17 and -49.36 | - |
| 54 | `Cc1ccc(N2CCN(C)c3ncccc3C2)nn1.O=C(O)C(F)(F)F` | 32.84 and 65.07 | - |
| 55 | `CCCNC(=O)c1cc(C(C)C)nc(N2CCCCC2)n1` | -10.78 | - |
| 56 | `CC(=O)Nc1nc(SCc2ccc3c(c2)OCO3)ns1` | -5.052 | - |
| 57 | `CC(C)(C)NC(=O)CNc1ccc(C#N)c(C(F)(F)F)c1` | 25.28 | - |

The first 5 entries again:

| Compound | Mtb glucose medium | Mtb cholesterol medium |
|---|---|---|
| `Cc1cccc(C2CCCN2S(=O)(=O)N(C)C)n1` (configuration not stated) | 37.8 | -9.674 |
| `COc1cccc(-c2cc(C(=O)NCCCn3nc(C)cc3C)[nH]n2)c1` | 52.33 | - |
| `Cc1nc(CCCNC(=O)c2cc(F)ccc2O)n[nH]1` | 20.36 | 6.596 |
| `CCOCC(=O)NCCc1ccc(I)s1` | 10.21 | - |
| `O=C(O)C(F)(F)F.O=C1N(Cc2ccncc2)CCC12CCCN(c1ncc(F)cn1)C2` (configuration not stated) | - | 23.86 |